In US5688773A, “Method of selectively destroying neoplastic cells” (priority 1994, dated 1997):
Read-outs that look alike come from different tables or passages of the source.

How the values were obtained:
[1] = tested on: C6-P450 cells; experiment: Cell proliferation assay; details: 0.5 mM, four days
[2] = tested on: C6-P450 cells; experiment: Trypsinization and replating assay; format: cell-based, rat
[3] = tested on: C6 cells; experiment: Cell proliferation assay; format: cell-based, rat; details: 0.5 mM, four days
Method: Cell proliferation assays: For cell proliferation assays, cells (2×10^5 per dish, unless otherwise noted) were plated onto 10 cm dishes. Twenty-four hours later, CPA, T4P, or DCPA were added to a final concentration of 0.5 mM. Incubations were continued for four days and cell numbers were assayed using a Coulter counter (Coulter Electronics Inc.), after harvesting in trypsinEDTA.

[4] = tested on: C6 cells; experiment: Trypsinization and replating assay; format: cell-based, rat; details: Table V panel B; survivors of panel A replated, nine days
Method: Trypsinization and replating assay: To determine the temporal kinetics of CPA-mediated cytotoxicity, 2×10^6 cells were plated onto each 10 cm dish. Twenty-four hours later, 0.5 mM CPA was added and cells were incubated for the times indicated in each figure. Cells were then trypsinized and replated at a density of 2×10^5 cells/10 cm dish. Nine days later, cell numbers were evaluated by Coulter counting.

[5] = tested on: C6 cells exposed to CM from C6-P450; experiment: C6 colony formation after conditioned medium from drug-exposed cells
[6] = tested on: C6 cells exposed to CM from C6; experiment: as above; format: cell-based, rat; details: Table V panel C; CM from treated C6 cultures
[7] = human plasma; cited from earlier work
[8] = rat plasma; cited from earlier work

Compound	inhibition of proliferation compared to untreated cells ([1]; 5760 min)	Cell proliferation assay, number of cells ([1]; Table V panel A)	Proliferation of treated cells after replating ([2]; 0.5 mM, trypsinization and replating)	Trypsinization and replating assay, cell count ([2]; Table V panel B, survivors of panel A replated, nine days)	inhibition in cell proliferation compared to untreated cells [3]	Cell proliferation assay, number of cells ([3]; Table V panel A)	Trypsinization and replating assay, cell count [4]	Toxicity of conditioned medium to C6 cell growth / colony formation ([5]; CM from treated C6-P450 cells, nine days)	Secretion effect, C6 colony number ([5]; Table V panel C, CM from treated C6-P450 cultures)	Secretion effect, C6 colony number [6]	t1/2 [7]	t1/2 [8]
trans-4-phenylcyclophosphamide	79%	5.59±0.07 ×10^6	completely inhibited	0.31±0.07	20%	16.6±0.87 ×10^6	19±1.03	minimal effects	279±3	277±1.8	–	–
O=P1(N(CCCl)CCCl)NC(O)CCO1 (stereo not drawn)	–	–	–	–	–	–	–	–	–	–	3.3 min	5.2 min
